Results published in article PMC8977893 (Frontiers in Cell and Developmental Biology, 2022).

System: SH-SY5Y cells
Assay type: cell-based, human
Conditions: phase contrast and confocal microscopy

Substance: fibrinogen: thrombogenic plasma protein fibrinogen from human plasma (Sigma #F4883)
- effect of fibrinogen preincubation on prion-induced aggregates and nuclear clusters: prevented the cells from forming aggregates as well as nuclear clusters
